Data as given in patent US20220387578A1, “Peptide vaccine based on a new universal influenza a hemagglutinin head domain epitope and human monoclonal antibodies binding thereto” (VANDERBILT UNIVERSITY, published 2022).
Numbering of substitutions follows the chain as printed. In names and notes the source's numbering stands.

Legend:
[1] = molecular target: T1, H1 HA A/Texas/36/1991 (H1N1), recombinant soluble trimer (influenza A virus); assay: BLI, biotinylated HA on streptavidin sensor
T1 construct: extracellular domain

[2] = molecular target: T2, H7 HA A/Netherlands/219/2003 (H7N7), recombinant (influenza A virus); assay: BLI, biotinylated HA on streptavidin sensor
[3] = molecular target: T3, H1 HA A/Solomon Islands/03/2006 (H1N1), recombinant soluble trimer (influenza A virus); assay: BLI, biotinylated HA on streptavidin sensor
T3 construct: extracellular domain

[4] = molecular target: T4, H7 HA A/Shanghai/2/2013 (H7N9), recombinant uncleaved trimer (influenza A virus); assay: BLI, biotinylated HA on streptavidin sensor
[5] = molecular target: H2 HA A/Adachi/2/1957 (H2N2) (influenza A virus); assay: BLI, biotinylated HA on streptavidin sensor
[6] = molecular target: T2, H7 HA A/Netherlands/219/2003 (H7N7), …; assay: ELISA
[7] = molecular target: H15 HA A/shearwater/Western Australia/2576/1979, recombinant (influenza A virus); assay: ELISA
[8] = molecular target: H9 HA A/Hong Kong/1073/99, recombinant (influenza A virus); assay: ELISA
[9] = molecular target: T5, H3 HA A/Texas/50/2012, recombinant soluble trimer (influenza A virus); assay: ELISA
T5 construct: extracellular domain

[10] = molecular target: H2 HA A/Singapore/1/1957, recombinant soluble trimer (influenza A virus); assay: ELISA
[11] = molecular target: H14 HA A/mallard duck/Astrakhan/263/1982, recombinant (influenza A virus); assay: ELISA
[12] = molecular target: H5 HA A/Indonesia/05/2005 (H5N1), recombinant (influenza A virus); assay: ELISA
[13] = molecular target: T4, H7 HA A/Shanghai/2/2013 (H7N9), …; assay: ELISA
[14] = molecular target: H1 HA A/California/04/2009 (H1N1), recombinant soluble uncleaved trimer (HA0) (influenza A virus); assay: ELISA on coated recombinant HA

B1: FluA-20 UCA Fab (Fab, V domains shown)
VH: QVQLQESGPGLVKPSETLSLTCTVSGGSVSSGSYYWSWIRQPPGKGLEWIGYIYYSGSTNYNPSLKSRVTISVDTSKNQFSLKLSSVTAADTAVYYCARGTEDLGYCSGGSCPNHWGQGTLVTVSS
VL: not shown
[1]
  Kd: 348 nM
[2]
  Kd: 1020 nM
[3]
  Kd: 325 nM
[4]
  Kd: 745 nM
[5]
  Kd: 201 nM

B2: rFluA-20 heavy chain mutant E97A (antibody, V domains shown)
VH: QVQLQESGPGLVKPSETLSLTCSVSGVSVTSDIYYWTWIRQPPGKGLEWIGYIFYNGDTNYNPSLKSRVTMSIDTSKNEFSLRLTSVTAADTAVYFCARGTADLGYCSSGSCPNHWGQGTLVTVSS
VL: DIQMTQSPSSLSASIGDRVTITCRPSQNIRSFLNWFQHKPGKAPKLLIYAASNLQSGVPSRFSGSGSGTEFTLTIRSLQPEDFATYYCQQSYNTPPTFGQGTKVEIK
[6]
  EC50: 0.08 µg/mL

B3: rFluA-20 IgG (recombinant FluA-20) (antibody, V domains shown)
VH: B2 VH with A102E
VL: B2 VL
[7]
  EC50: 0.007 µg/mL
[8]
  EC50: 0.007 µg/mL
[9]
  EC50: 0.007 µg/mL
[10]
  EC50: 0.011 µg/mL
[11]
  EC50: 0.007 µg/mL
[12]
  EC50: 0.016 µg/mL
[13]
  EC50: 0.013 µg/mL

B4: rFluA-20 heavy chain mutant Y100aA (antibody, V domains shown)
VH: B2 VH with A102E, Y106A
VL: B2 VL
[6]
  EC50 relative to wild type rFluA-20: > 100 fold

B5: rFluA-20 heavy chain mutant Y34A (antibody, V domains shown)
VH: B2 VH with Y34A, A102E
VL: B2 VL
[6]
  EC50: 0.07 µg/mL

B6: mAb H5.28 (hybridoma IgG) (antibody, V domains shown)
VH: EVQLVESGGGLVQPGGSLRLSCAASGFTFSTYWMTWVRQAPGKGLEWVANINQDGGEKYFVDSVKGRFTISRDNAKNSLFLQMNTLRAEDTAVYYCARGFLERLLLGRQGAYYYGMDVWGQGTTVTVSS
VL: DIQMTQSPSSLSASVGDRVSMTCRASQIISSSLNWYQQKPGKAPKLLIYAASNLQSGVPSRFSGSGSGTDFTLTISSLQPEDFATYYCQQSYSTPPELTFGGGTKVEIK
[14]
  EC50: 0.026 µg/mL

B7: mAb H5.31 (hybridoma IgG) (antibody, V domains shown)
VH: EVQLVQSGGGLVQPGGSLRLSCEASRFTSSSYWITWVRQAPGKGLEWVANIKQDGSEKYFVDSVKGRFTISRDNASNSLYLQMSSLRAEDTAVYYCARGFLERLLLGRQGAYYYGMDVWGQGTTVTVSS
VL: B6 VL with S20T, I28S, S93T, T94M, E107Q
[14]
  EC50: 0.005 µg/mL
